Consider 6 molecules from the supplement of paper PMC9931576.

B1: BD55-1398 (protein)
chain 1: EVQLVESGGGLVQPGGSLRLSCAASGFTFSSYDMHWVRQSTGKGLEWVSVIGTAGDRYYPDSVKGRFTISRDNAKNSLYLQMNSLGAGDTAMYYCVRGHFDRSGFYSMFDYWGQGTLVIVSS
chain 2: DFQMTQSPSSLSASVGDRVTITCRASQTIRNYLNWYQQKPGKAPKLLIYAASSLQSGVPSRFSGSGSGTDFTLTISSLQPEDFATYYCQQSYVSIYTFGQGTTLEIK
B2: BD55-1579 (protein)
chain 1: QVQLVQSGAELKNPGSSVKVSCKTSGDTFTKYAITWVRQAPGQGLEWMGRIIPLFGMANYAQKFQGRVTFTADKSTDTVYMEMTSLTSEDTAVYFCARGAYQSDSSGYHCHHWGQGTLVTVSS
chain 2: EIVLTQSPGILSLSPGERATLSCRASQIVSGNYLAWYQQKVGQAPRLLMYGASNRATGVPDRFSGSGSGTDFTLTITRVEPEDFAVYYCQQYVSSPRSFGQGTKVEFK
B3: BD55-1354 (protein)
chain 1: EVQLVESGGGLVQPGGSLRLSCVGSGISFSTYSMNWVRQAPGKGLEWVSSISVSSSYIYYADSVKGRFIVSRDNAKNSLYLQLNSLRAEDTAVYYCATDPTVMVQNSFDFWGQGTLVTVSS
chain 2: DIQMTQSPSSLSASVGDRVTITCRASQSISSFLNWYQQKPGKAPKLLIYGASSLQSGVPSRFSGSGSGTDFTLTISSLQPEDFATYYCQQSYSTLITFGQGTRLDIK
B4: BD55-1416 (protein)
chain 1: EVQLVESGGGLVHLGGSLRLSCSASGFTFSRYAMHWVRQAPGKGLEYVSGISSDGGIRDYADSVKGRFTISRDNSKNTLYLQMGSLRADDTAIYYCVKDDLTSVTTLFDYWGQGTLVTVSS
chain 2: B3 chain 2 with S9F, S31T, F32Y, G50S, Q79R, S93T, T94N, L95P, I96P, R103K
B5: BD55-1435 (protein)
chain 1: EVQLVESGGGLVKPGGSLRLSCAASGFTFTNAWMSWVRQAPGKGLEWVGLIKSNTDGGTTDYAAPVKGRVTISRDDSKNTVYLQMNSLKTEDTAVYYCTQSRWFLLPFLNWGQGTLVTVSS
chain 2: QSVLTQPPSASGTPGQRVTISCSGSSSNIGSNAVNWYQQLPGTAPKLLIYNSNQRPSGVPDRFSGSKPGTSASLAISGLQSEDEADYYCAAWDDSLNGWLFGGGTKLTVL
B6: BD55-1396 (protein)
chain 1: EVQLVQSGAEVKKPGESLKISCKASGYKFTNYWIAWVRQMPGKGLECMGIIYPDDSDSRYSPSFQGQVTISADKSITTAYLQWGSLKASDTAMYYCARHIRPYCSGDCSTDAFDIWGQGTMVTVSS
chain 2: QSVLTQPPSVSAAPGQKVTISCSGSSSNIGNNYVSWYQHLPGTAPKLLIFDNNQRPSGIPDRFSGSKSGTSATLGITGLQTGDEADYYCGTWDSSLNTGVFGGGTKLTVL

Where a chain is given by its changes, count along the chain named. Human monoclonal antibodies against the spike receptor-binding domain (heavy:light variable regions). IC50 against pseudoviruses bearing the spike of naturally observed variants; lower = stronger; >10 µg/ml means not reached at the top dose. No active / inactive call. The stated detection limit is 0.0005 µg/ml; values near or below 0.001 µg/ml lie at the floor of the assay.

One assay has as its target SARS-CoV-2 Omicron BA.1 spike pseudovirus. The assay can be described thus: pseudovirus neutralization IC50; higher = weaker neutralization. The method, then:
(§1)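 Single-round VSV luciferase pseudovirus mixed with antibody dilutions for 1 h and put on Huh-7 cells for about a day; IC50 from the dose curve.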
Turning to B1, the “pseudovirus neutralization IC50” value was above 10 µg/mL.

As to B2, the “pseudovirus neutralization IC50” value is above 10 µg/mL.

On to B3, for which the “pseudovirus neutralization IC50” value amounted to 0.663 µg/mL.

B4: the “pseudovirus neutralization IC50” value was above 10 µg/mL.

On to B5, for which the “pseudovirus neutralization IC50” value was above 10 µg/mL.

As to B6, the “pseudovirus neutralization IC50” value is above 10 µg/mL.

A further assay has as its target SARS-CoV-2 Omicron BA.2 spike pseudovirus. The description is as above. On the procedure:
as §1
In the case of B1, the “pseudovirus neutralization IC50” value stood at 8.18 µg/mL.

Take B2: the “pseudovirus neutralization IC50” value was above 10 µg/mL.

In the case of B3, the “pseudovirus neutralization IC50” value was determined as 0.0861 µg/mL.

For B4, the “pseudovirus neutralization IC50” value is above 10 µg/mL.

For B5, the “pseudovirus neutralization IC50” value was above 10 µg/mL.

For B6, the “pseudovirus neutralization IC50” value is above 10 µg/mL.

Another assay addresses SARS-CoV-2 Omicron BA.2.75 spike pseudovirus. Described as above. The method, then: as §1
Regarding B1, the “pseudovirus neutralization IC50” value is above 10 µg/mL.

With B2, the “pseudovirus neutralization IC50” value was above 10 µg/mL.

For B3, the “pseudovirus neutralization IC50” value was found to be 0.618 µg/mL.

For B4, the “pseudovirus neutralization IC50” value was above 10 µg/mL.

B5: the “pseudovirus neutralization IC50” value is above 10 µg/mL.

For B6, the “pseudovirus neutralization IC50” value is above 10 µg/mL.

Another assay concerns the target SARS-CoV-2 Omicron BA.5 spike pseudovirus. The description is as above. On the procedure: as §1
Turning to B1, the “pseudovirus neutralization IC50” value was determined as 6.73 µg/mL.

As to B2, the “pseudovirus neutralization IC50” value was above 10 µg/mL.

For B3, the “pseudovirus neutralization IC50” value was above 10 µg/mL.

In the case of B4, the “pseudovirus neutralization IC50” value was above 10 µg/mL.

For B5, the “pseudovirus neutralization IC50” value is above 10 µg/mL.

For the molecule B6, the “pseudovirus neutralization IC50” value was above 10 µg/mL.

For another assay, the target named is SARS-CoV-2 Omicron BQ.1.1 spike pseudovirus. Described as above. On the procedure: as §1
Consider B1, for which the “pseudovirus neutralization IC50” value was above 10 µg/mL.

In the case of B2, the “pseudovirus neutralization IC50” value is above 10 µg/mL.

For B3, the “pseudovirus neutralization IC50” value is above 10 µg/mL.

For B4, the “pseudovirus neutralization IC50” value is above 10 µg/mL.

For B5, the “pseudovirus neutralization IC50” value is above 10 µg/mL.

For B6, the “pseudovirus neutralization IC50” value is above 10 µg/mL.

For another assay, the target named is SARS-CoV-2 Omicron XBB spike pseudovirus. The assay is described as above. On the procedure:
as §1
Consider B1, for which the “pseudovirus neutralization IC50” value is above 10 µg/mL.

For B2, the “pseudovirus neutralization IC50” value is above 10 µg/mL.

B3: the “pseudovirus neutralization IC50” value was above 10 µg/mL.

With B4, the “pseudovirus neutralization IC50” value was above 10 µg/mL.

As for B5, the “pseudovirus neutralization IC50” value is above 10 µg/mL.

With B6, the “pseudovirus neutralization IC50” value was above 10 µg/mL.

The target of another assay is SARS-CoV-2 early D614G spike pseudovirus. The description is as above. On the procedure:
as §1
B1: the “pseudovirus neutralization IC50” value turned out to be 1.47 µg/mL.

B2: the “pseudovirus neutralization IC50” value was 0.0455 µg/mL.

In the case of B3, the “pseudovirus neutralization IC50” value came to 0.0138 µg/mL.

With B4, the “pseudovirus neutralization IC50” value was 1.72 µg/mL.

Regarding B5, the “pseudovirus neutralization IC50” value was found to be 0.0506 µg/mL.

As for B6, the “pseudovirus neutralization IC50” value was above 10 µg/mL.
